Compound potency records, mixed from different reports. Data source: NIAID ChemDB in PubChem.

Common to all: whole-cell or culture tests; organism: Hepatitis C virus; cell line: Huh7; read by: replicon; endpoint: EC50

Conditions beyond the fields shown may differ between rows. ECn: concentration that inhibits the pathogen or its effect by n%. a–b is a range or a potency band.

COC(=O)c1ccc2c(C3CCCCC3)c3n(c2c1)CC(C(=O)N1CCOCC1)=C(C)c1ccccc1-3 ; value: 1–10 µM
CNC(=O)c1c(-c2ccc(F)cc2)oc2cc(N(C)C)c(OC)cc12 ; value: <1 µM
O=C(Cc1ccccc1)N/N=C/c1ccccc1OS(=O)(=O)c1ccc(OC(F)(F)F)cc1 ; value: <5 µM
CCNC(=O)c1c(-c2ccc(F)cc2)oc2cc(NS(C)(=O)=O)c(OC(C)C)cc12 ; value: <1 µM
COC(=O)c1ccc2c(C3CCCCC3)c3n(c2c1)CNc1ccccc1-3 ; value: 0.01–1 µM
CNC(=O)c1c(-c2ccc(F)cc2)oc2cc(N(C)S(C)(=O)=O)c(OCc3ccccc3C(=O)OC)cc12 ; value: <1 µM
CCC(C)c1ccc(N=C2SC(c3ccc(NC(=O)[C@H]4CCCN4C(=O)OCc4ccccc4)cc3)C(=O)N2Cc2ccco2)cc1 ; value: 0.1–1 µM
O=C(NCc1ccccn1)Nc1ccccc1OS(=O)(=O)c1ccc(C(F)(F)F)cc1 ; value: >50 µM
CNC(=O)c1c(-c2ccc(F)cc2)oc2cc(S(=O)(=O)N3CCSCC3)c(OC(C)C)cc12 ; value: <1 µM
C[C@@H](NC(=O)OCc1ccccc1)C(=O)Nc1ccc(C2SC(=Nc3ccc(F)c(Cl)c3)N(Cc3ccco3)C2=O)cc1 ; value: 1–5 µM
O=C(N/N=C/c1ccccc1OS(=O)(=O)c1ccc(C(F)(F)F)cc1)c1c(F)cccc1C(F)(F)F ; value: <5 µM
CCOc1cc2c(C(=O)NC)c(-c3ccc(F)cc3)oc2cc1N(CC)S(C)(=O)=O ; value: <1 µM
O=C(N/N=C/c1ccccc1OS(=O)(=O)c1ccc(C(F)(F)F)cc1)c1cccc2ccccc12 ; value: <5 µM
O=C(O)c1ccc2c(C3CCCCC3)c3n(c2c1)CC(C(=O)N1CCN(c2ccncc2)CC1)Cc1ccccc1-3 ; value: 0.01–1 µM
CNC(=O)c1c(-c2ccc(F)cc2)oc2cc(-c3nocc3CCO)c(OC)cc12 ; value: <1 µM
CN(C)CCNC(=O)C1=Cc2ccccc2-c2c(C3CCCCC3)c3ccc(C(=O)O)cc3n2C1 ; value: 0.01–1 µM
CNC(=O)c1c(-c2ccc(F)cc2)oc2cc(N(C(C)C)S(C)(=O)=O)c(OC)cc12 ; value: <1 µM
Cc1ccc(S(=O)(=O)Oc2ccccc2/C=N/NC(=O)Cc2cccc(Cl)c2)cc1 ; value: <5 µM
Cn1cnc(S(=O)(=O)NC(=O)c2ccc3c(C4CCCCC4)c4n(c3c2)C[C@@H](O)[C@@H](O)c2ncccc2-4)c1 ; value: >10 µM
CNC(=O)c1c(-c2ccc(F)cc2)oc2cc(OCc3nnnn3C)c(OC)cc12 ; value: <1 µM
NC(=O)C1Cc2ccccc2-c2c(C3CCCCC3)c3ccc(C(=O)NC4(C(=O)Nc5ccc(/C=C/C(=O)O)cc5)CCCC4)cc3n2C1 ; value: 0.01–1 µM
O=C(Nc1ccc(C2SC(=Nc3cccc(F)c3)N(CCOc3ccccc3)C2=O)cc1)[C@H]1CCCN1C(=O)OCc1ccccc1 ; value: 1–5 µM
CCOC(=O)/C=C/c1ccc(NC(=O)C2(NC(=O)c3ccc4c(C5CCCCC5)c5n(c4c3)C(OC)c3ccccc3-5)CCCC2)cc1 ; value: 1–10 µM
C[C@@H](NC(=O)OCc1ccccc1)C(=O)Nc1ccc(C2SC(=Nc3cc(F)cc(C#N)c3)N(Cc3ccco3)C2=O)cc1 ; value: <0.1 µM

Again, the opening 2 rows:

SMILES | value
COC(=O)c1ccc2c(C3CCCCC3)c3n(c2c1)CC(C(=O)N1CCOCC1)=C(C)c1ccccc1-3 | 1–10 µM
CNC(=O)c1c(-c2ccc(F)cc2)oc2cc(N(C)C)c(OC)cc12 | <1 µM